Assay results: PMC10519361, “Shigella flexneri utilizes intestinal signals to control its virulence” (Gut Microbes, 2023)
The exact form of at least one protein or probe is not confirmed. At least one verdict rests on a figure or table, not on a statement of the authors.

By UniProt entry, the sequences of proteins in these tests, tags left out.
UniProt P0A2T1, whole entry: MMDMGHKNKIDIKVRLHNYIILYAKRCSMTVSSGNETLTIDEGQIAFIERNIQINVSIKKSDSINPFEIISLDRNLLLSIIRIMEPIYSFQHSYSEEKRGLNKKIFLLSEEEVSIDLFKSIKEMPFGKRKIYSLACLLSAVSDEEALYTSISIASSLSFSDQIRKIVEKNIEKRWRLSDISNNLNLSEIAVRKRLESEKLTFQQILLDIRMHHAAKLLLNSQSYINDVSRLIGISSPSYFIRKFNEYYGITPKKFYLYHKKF

Molecular target: VirF (Shigella flexneri) (UniProt P0A2T1)
Experiment: EMSA
Conditions: 250 uM VirF, 100 nM DNA, no fatty acid; EMSA: 10 mM Tris pH 7.5, 1 mM EDTA, 100 mM KCl, 0.1 mM DTT, 5% glycerol, 0.01 mg/ml BSA; 15 min at 37 C; 6% polyacrylamide gel, 1X TAE; recombinant protein; label: none (SYBR green stain); probe letters rebuilt from the primers and the genome

AATTGATAAGCATTTTTTCATCTATGGAGCTCTCACATCAGAGCTCCACAAGAATATTATTCTTTTATCCAATAAAGATAAATTGCATCAATCCAGCTATTAAAATAGTAATTTTTAAGACTACCGTTGACTATCATCAACAGTTACATACAATCTTGCTCACACTGCATTTAACTTTTGTCAATATAAATCAATATGAATAAACAGGGTGTGAT (double strand) [virB promoter (PvirB)]
binding result: binds
